Test results published in PMC11950254, “Antiviral Susceptibility of Influenza A(H5N1) Clade 2.3.2.1c and 2.3.4.4b Viruses from Humans, 2023–2024” (2025).

How the values were obtained:
[1] = test system: A/bald eagle/FL/2022 (H5N1)
[2] = test system: A/Cambodia/NPH230776/2023
[3] = test system: A/Cambodia/KSH230332/2023
[4] = test system: A/Wisconsin/53/2009 (H1N1)pdm09
[5] = test system: Clade 2.3.4.4b viruses, n = 7
[6] = test system: A/Illinois/08/2018 (H1N1)pdm09, PA-I38T
[7] = test system: Clade 2.3.2.1c viruses, n = 7
[8] = test system: A/Cambodia/NPH230032/2023
[9] = target: NA activity of A/Illinois/45/2019 (H1N1)pdm09 (Influenza A virus (H1N1)pdm09, UniProt A0A0X9QTS2)
[10] = target: NA activity of A/Cambodia/KSH230332/2023 (Influenza A virus, UniProt A0A1L2FNJ6)
[11] = target: NA activity of B/North Carolina/25/2018 (Vic) (Influenza B virus, UniProt A0A1X9RX69)
[12] = target: NA activity of A/Colorado/109/2024 (Influenza A virus (H5N1), UniProt Q9Q0U7)
[13] = target: NA activity of A/Michigan/90/2024 (Influenza A virus (H5N1), UniProt Q9Q0U7)
[14] = target: NA activity of A/Chile/25945/2023 (Influenza A virus (H5N1), UniProt Q9Q0U7)
[15] = target: NA activity of A/Colorado/137/2024 (Influenza A virus (H5N1), UniProt Q9Q0U7)
[16] = target: NA activity of A/Cambodia/NPH230776/2023 (Influenza A virus (H5N1), UniProt H9E9A5)
[17] = target: NA activity of A/Colorado/139/2024 (Influenza A virus (H5N1), UniProt Q9Q0U7)
[18] = target: NA activity of Clade 2.3.4.4b viruses, n = 7 (Influenza A virus, UniProt Q9Q0U7)
[19] = target: NA activity of A/Alabama/03/2020 (H1N1)pdm09, NA-H275Y (Influenza A virus, UniProt A0A0X9QTS2, H275Y)
[20] = target: NA activity of A/Cambodia/24020179/2024 (Influenza A virus, UniProt A0A1L2FNJ6)
[21] = target: NA activity of B/Missouri/12/2018 (Vic), NA-D197E (Influenza B virus, UniProt A0A1X9RX69, D197E)
[22] = target: NA activity of A/Washington/33/2014 (H3N2), NA-E119V (Influenza A virus, UniProt A0A0N7G9M6, E119V)
[23] = target: NA activity of A/Cambodia/2311257/2023 (Influenza A virus, UniProt A0A1L2FNJ6)
[24] = target: NA activity of A/Cambodia/24020155/2024 (Influenza A virus, UniProt A0A1L2FNJ6)
[25] = target: NA activity of A/California/134/2024 (Influenza A virus, UniProt Q9Q0U7)
[26] = target: NA activity of A/Texas/37/2024 (Influenza A virus, UniProt Q9Q0U7)
[27] = test system: A/Illinois/08/2018 (H1N1)pdm09
[28] = test system: A/Pennsylvania/242/2017 (H3N2), PB2-S342R
[29] = test system: A/New Jersey/24/2017 (H3N2)

For `NC12CC3CC(CC(C3)C1)C2`, the “Mean EC50 ±SD” value [1] was 0.03022 ± 0.01333 µg/mL, the “Mean EC50 ±SD” value (A/Cambodia/2311257/2023) was 0.05973 ± 0.01649 µg/mL and the “Mean EC50 ±SD” value (A/Cambodia/24020155/2024) was 0.03236 ± 0.01013 µg/mL. The “Mean EC50 ±SD” value (A/Michigan/90/2024) was 0.0296 ± 0.00452 µg/mL, the “Mean EC50 ±SD” value (A/Colorado/139/2024) was 0.01765 ± 0.00439 µg/mL and the “Mean EC50 ±SD” value [2] was 0.04327 ± 0.01046 µg/mL. The “Mean EC50 ±SD” value (A/Colorado/109/2024) was 0.01488 ± 0.00317 µg/mL, the “Mean EC50 ±SD” value (A/Texas/37/2024) was 0.02411 ± 0.00594 µg/mL and the “Mean EC50 ±SD” value (A/Colorado/137/2024) was 0.02521 ± 0.003 µg/mL. The “Mean EC50 ±SD” value (A/Chile/25945/2023) was 0.09543 ± 0.01169 µg/mL, the “Mean EC50 ±SD” value (A/Cambodia/24020179/2024) was 0.03473 ± 0.01595 µg/mL and the “Mean EC50 ±SD” value [3] was 0.04189 ± 0.01331 µg/mL. The “Mean EC50 ±SD” value (A/California/134/2024) was 0.01414 ± 0.00307 µg/mL, the “Mean EC50 ±SD” value (A/Chile/25945/2023 clone) was 0.027 µg/mL and 0.02673 ± 0.00324 µg/mL and the “Mean EC50 ±SD” value [4] was 0.02549 ± 0.00498 µg/mL.
`CC(N)C12CC3CC(CC(C3)C1)C2` (centres unmarked) was tested, and the “Mean EC50 ±SD” value [1] was 0.00836 ± 0.00199 µg/mL, the “Mean EC50 ±SD” value (A/Cambodia/2311257/2023) was 0.01297 ± 0.00174 µg/mL and the “Mean EC50 ±SD” value (A/Michigan/90/2024) was 0.00806 ± 0.00154 µg/mL. For the same compound, the “Mean EC50 ±SD” value (A/Colorado/139/2024) was 0.0053 ± 0.00069 µg/mL, the “Mean EC50 ±SD” value [2] was 0.01227 ± 0.00779 µg/mL and the “Mean EC50 ±SD” value (A/Colorado/109/2024) was 0.00422 ± 2e-05 µg/mL. For the same compound, the “Mean EC50 ±SD” value (A/Texas/37/2024) was 0.00657 ± 0.00171 µg/mL, the “Mean EC50 ±SD” value (A/Colorado/137/2024) was 0.00661 ± 0.00057 µg/mL and the “Mean EC50 ±SD” value (A/Chile/25945/2023) was 0.0167 ± 0.00671 µg/mL. For the same compound, the “Mean EC50 ±SD” value (A/Cambodia/24020179/2024) was 0.00725 ± 0.00296 µg/mL, the “Mean EC50 ±SD” value [3] was 0.00984 ± 0.00228 µg/mL and the “Mean EC50 ±SD” value (A/California/134/2024) was 0.00428 ± 0.0006 µg/mL. For the same compound, the “Mean EC50 ±SD” value (A/Chile/25945/2023 clone) was 0.007 µg/mL and 0.0069 ± 0.00052 µg/mL.
Compound `O=C1c2c(O)c(=O)ccn2N([C@@H]2c3ccccc3SCc3c2ccc(F)c3F)[C@@H]2COCCN12` has an EC50 [1] of 0.42 nM, an EC50 (A/Cambodia/2311257/2023) of 0.62 nM and an EC50 [5] of 0.83 nM. For the same compound, the EC50 (A/Cambodia/24020155/2024) was 0.54 nM, the EC50 (A/Michigan/90/2024) was 0.57 nM and the EC50 [6] was 137 nM. It also gave an EC50 (A/Colorado/139/2024) of 0.7 nM, an EC50 [2] of 0.54 nM and an EC50 (A/Colorado/109/2024) of 0.44 nM. For the same compound, the EC50 (A/Texas/37/2024) was 1.06 nM, the EC50 (A/Colorado/137/2024) was 0.95 nM and the EC50 (A/Chile/25945/2023) was 0.96 nM. It also gave an EC50 (A/Cambodia/24020179/2024) of 0.4 nM, an EC50 [3] of 0.55 nM and an EC50 (A/California/134/2024) of 0.73 nM. It also gave an EC50 [7] of 0.55 nM and an EC50 [8] of 0.56 nM.
Work on oseltamivir carboxylate yielded an IC50 [9] of 0.34 nM, an IC50 [10] of 1.03 nM and an IC50 [11] of 23.7 nM. For the same compound, the IC50 [12] was 3.99 nM, the IC50 [13] was 3.65 nM and the IC50 [14] was 2.98 nM. The IC50 [15] was 3.8 nM, the IC50 [16] was 0.74 nM and the IC50 [17] was 3.51 nM. It also gave an IC50 [18] of 3.61 nM, an IC50 [19] of 201 nM and an IC50 [20] of 0.9 nM. For the same compound, the IC50 [21] was 165 nM, the IC50 [22] was 47.3 nM and the IC50 [23] was 0.99 nM. The IC50 [24] was 0.96 nM, the IC50 [25] was 3.61 nM and the IC50 [26] was 3.16 nM.
Work on peramivir yielded an IC50 [9] of 0.05 nM, an IC50 [11] of 0.55 nM and an IC50 [16] of 0.11 nM. It also gave an IC50 [19] of 15.8 nM and an IC50 [22] of 0.11 nM.
Compound `O=C(O)[C@H]1C2CCC(CC2)[C@@H]1Nc1nc(-c2c[nH]c3ncc(F)cc23)ncc1F` has an EC50 [1] of 0.46 nM, an EC50 (A/Cambodia/2311257/2023) of 0.4 nM and an EC50 [27] of 0.93 nM. It also gave an EC50 [28] of 99.5 nM, an EC50 [5] of 1.32 nM and an EC50 (A/Cambodia/24020155/2024) of 0.91 nM. The EC50 (A/Michigan/90/2024) was 1.48 nM, the EC50 [6] was 0.49 nM and the EC50 (A/Colorado/139/2024) was 1.19 nM. For the same compound, the EC50 [2] was 0.37 nM, the EC50 (A/Colorado/109/2024) was 1.32 nM and the EC50 (A/Texas/37/2024) was 1.66 nM. The EC50 (A/Colorado/137/2024) was 1.51 nM, the EC50 (A/Chile/25945/2023) was 0.73 nM and the EC50 (A/Cambodia/24020179/2024) was 0.45 nM. The EC50 (A/Cambodia/2302009/2023) was 0.07 nM, the EC50 [3] was 0.34 nM and the EC50 (A/California/134/2024) was 1.03 nM. The EC50 [7] was 0.4 nM, the EC50 [8] was 0.06 nM and the EC50 [29] was 0.6 nM.

Where “and” joins values, the source holds several entries; their conditions need not be identical. Identical values can stand only once.
